Measured values from several laboratories, pooled; numbers as filed in NIAID ChemDB.

All rows: tests on isolated targets

Percent inhibition refers to the dose given; in toxicity tests it is the harm to the cells.

SMILES | measure | protein | tested at | strain or isolate | read by | organism | value
O=C(Nc1ccc2cn[nH]c2c1)c1cc(C2CCNCCN2)c(F)cc1F | inhibition | Reverse transcriptase | 1 µg/mL |  |  | Hepatitis B virus | 82%
Cc1ccccc1S(=O)(=O)Nc1cc(-c2ccncc2)sc1C(=O)O | IC50 | NS3 ATPase |  |  |  | Hepatitis C virus | <5 µM
Cc1ccc(CNC(=O)Nc2cccc(-c3nc(C(=O)O)c(O)c(=O)[nH]3)c2)cc1 | IC50 | HCV polymerase |  |  |  | Hepatitis C virus | <100 µM
O=C1/C(=C\c2ccc(Br)c(Br)c2)SC(=S)N1NS(=O)(=O)c1ccccc1Cl | IC50 | NS5B polymerase |  |  |  | Hepatitis C virus | ≤30 µM
COCC(C)N(C(=O)c1ccc(Cl)cc1Cl)c1cc(-c2ccccc2)sc1C(=O)O | IC50 | NS3 ATPase |  |  |  | Hepatitis C virus | <5 µM
O=C(Nc1ccc2cn[nH]c2c1)c1cc(N2CCN(CCO)CC2)c(F)cc1F | inhibition | Nonstructural protein 5B | 1 µg/mL |  |  | Hepatitis C virus | 10%
O=C(Nc1ccsc1-c1nc(C(=O)O)c(O)c(=O)[nH]1)OCC1CCCO1 | IC50 | HCV polymerase |  |  |  | Hepatitis C virus | <25 µM
Cc1ccc(/C=C2/SC(=S)N(Cc3ccccc3)C2=O)cc1 | IC50 | NS5B polymerase |  |  |  | Hepatitis C virus | >30 µM
O=C(O)c1sc(-c2ccccc2)cc1N(C(=O)c1ccc(Cl)cc1Cl)C1CCCCC1 | IC50 | NS3 ATPase |  |  |  | Hepatitis C virus | <5 µM
O=C1/C(=C\c2ccc(Br)c(Br)c2)SC(=S)N1NS(=O)(=O)c1ccccc1 | IC50 | NS5B polymerase |  |  |  | Hepatitis C virus | ≤30 µM
N[C@@H](C(=O)Nc1ccsc1-c1nc(C(=O)O)c(O)c(=O)[nH]1)c1ccccc1 | IC50 | HCV polymerase |  |  |  | Hepatitis C virus | <25 µM
CN1CCN(c2cc(C(=O)Nc3ccc4cn[nH]c4c3)c(F)cc2F)CC1 | inhibition | Reverse transcriptase | 0.01 µg/mL |  |  | Hepatitis B virus | 10%
O=C(O)c1nc(-c2cccc(OCc3ccc(F)cc3Cl)c2)[nH]c(=O)c1O | IC50 | HCV polymerase |  |  |  | Hepatitis C virus | <100 µM
C=C[C@@H]1C[C@]1(NC(=O)[C@@H]1C[C@@H](Oc2nccc3ccc(Br)cc23)CN1C(C)=O)C(=O)NS(=O)(=O)C1CC1 | IC50 | Nonstructural protein 3/4A |  | 1b C159S | FRET | Hepatitis C virus | 1.58 µM
NCc1ccc(COC(=O)Nc2ccsc2-c2nc(C(=O)O)c(O)c(=O)[nH]2)cc1 | IC50 | HCV polymerase |  |  |  | Hepatitis C virus | <25 µM
CN(C(=O)c1ccc(C(F)(F)F)cc1)c1cc(-c2ccccc2)sc1C(=O)O | IC50 | NS3 ATPase |  |  |  | Hepatitis C virus | 5–20 µM
CN1CCNCCC1c1cc(C(=O)Nc2ccc3[nH]ncc3c2)c(F)cc1F | inhibition | Reverse transcriptase | 0.1 µg/mL |  |  | Hepatitis B virus | 49%
O=C(O)c1nc(-c2cccc(OCc3ccccc3)c2)[nH]c(=O)c1O | IC50 | HCV polymerase |  |  |  | Hepatitis C virus | <100 µM
CC(C)N(C(=O)c1cc(-c2ccccc2)sc1C(=O)O)c1ccc(Cl)cc1Cl | IC50 | NS3 ATPase |  |  |  | Hepatitis C virus | <5 µM
O=C(Nc1ccc2[nH]ncc2c1)c1cc(N2CCNCC2)c(F)cc1F | IC50 | Nonstructural protein 5B |  |  |  | Hepatitis C virus | 1–10 µg/mL
O=C(Nc1cccc(-c2nc(C(=O)O)c(O)c(=O)[nH]2)c1)c1cccc(OC(F)(F)F)c1 | IC50 | HCV polymerase |  |  |  | Hepatitis C virus | <100 µM
CC(C[NH3+])N(C(=O)c1ccc(Cl)cc1Cl)c1cc(-c2ccccc2)sc1C(=O)O | IC50 | NS3 ATPase |  |  |  | Hepatitis C virus | <5 µM
O=C(Nc1ccc2[nH]ncc2c1)c1cc(NCc2ccccn2)c(F)cc1F | inhibition | Reverse transcriptase | 1 µg/mL |  |  | Hepatitis B virus | 69%
C[C@H]([C@@H](O)c1ccccc1)N(C(=O)c1ccc(Cl)cc1Cl)c1cc(-c2ccccc2)sc1C(=O)O.C[Si](C)C(C)(C)C | IC50 | NS3 ATPase |  |  |  | Hepatitis C virus | 5–20 µM
O=C(Nc1ccc2cn[nH]c2c1)c1cc(NCc2ccccn2)c(F)cc1F | inhibition | Reverse transcriptase | 1 µg/mL |  |  | Hepatitis B virus | 65%
O=C1/C(=C\c2ccc(Cl)c(Cl)c2)SC(=S)N1NS(=O)(=O)c1cc(Cl)cc(Cl)c1 | IC50 | NS5B polymerase |  |  |  | Hepatitis C virus | ≤30 µM
Cc1ccc([N+](=O)[O-])c(COC(=O)Nc2ccsc2-c2nc(C(=O)O)c(O)c(=O)[nH]2)c1 | IC50 | HCV polymerase |  |  |  | Hepatitis C virus | <25 µM
CN1CCN(c2cc(C(=O)Nc3ccc4[nH]ncc4c3)c(F)cc2F)CC1 | inhibition | Reverse transcriptase | 0.01 µg/mL |  |  | Hepatitis B virus | 43%
O=C(NCc1cccc(OC(F)(F)F)c1)Nc1cccc(-c2nc(C(=O)O)c(O)c(=O)[nH]2)c1 | IC50 | HCV polymerase |  |  |  | Hepatitis C virus | <100 µM
CC(COCc1ccccc1)N(C(=O)c1ccc(Cl)cc1Cl)c1cc(-c2ccccc2)sc1C(=O)O | IC50 | NS3 ATPase |  |  |  | Hepatitis C virus | <5 µM

A second listing of 2 rows from above:

SMILES	measure	protein	tested at	strain or isolate	read by	organism	value
O=C(O)c1sc(-c2ccccc2)cc1N(C(=O)c1ccc(Cl)cc1Cl)C1CCCCC1	IC50	NS3 ATPase				Hepatitis C virus	<5 µM
CC(C)N(C(=O)c1cc(-c2ccccc2)sc1C(=O)O)c1ccc(Cl)cc1Cl	IC50	NS3 ATPase				Hepatitis C virus	<5 µM

Lines come from different laboratories, so protocols vary. ICn is the concentration giving n% inhibition. Blank or dashed fields: not listed here. a–b is a range or a potency band.